Laboratory results: PubChem BioAssay AID1259414 (Drosophila RNAi Screening Center, 2018)
The deposit covers about 24,000 reagents; this is an unselected part of those with a known target gene and a result. Of all reagents, about 1,210 (5%) were called active. 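Inactive calls also include excluded dsRNAs with several or no targets, genes unexpressed in JW18, and well A1, regardless of score.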 Entries without a mark were called inactive.

- Aim: 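Host factors increasing or decreasing Wolbachia levels in cultured fly cells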 (primary screen)
- Cell system: Drosophila JW18 cells infected with Wolbachia
- Reagent: long dsRNA against Drosophila genes, 0.25 µg dsRNA per well of a 384-well plate
- Timing: 5 days
- Challenge: cells persistently infected with Wolbachia before knock-down; no added drug
- Measurement: 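Automated imaging of bacterial rRNA staining divided by host cell count, reported as plate-normalised robust z-score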
- Scale: Wolbachia per cell robust z: higher = more Wolbachia per host cell than the plate typical
- Rule for the call: 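Hit when robust z is 1.5 or more, or -1.5 or less, in at least two of three replicates; excludes dsRNAs with several or no targets, genes not expressed in JW18 and well A1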

The first 2 entries, to show the layout:
predicted target | dsRNA | Wolbachia per cell robust z, rep 1 | Wolbachia per cell robust z, rep 2 | Wolbachia per cell robust z, rep 3
Bacc | DRSC27262 | 1.01 | 1.19 | 0.661
CG42816 | DRSC11230 | 0.52 | 0.222 | 0.476

Results, repeating the preview:
predicted target | dsRNA | Wolbachia per cell robust z, rep 1 | Wolbachia per cell robust z, rep 2 | Wolbachia per cell robust z, rep 3
Bacc | DRSC27262 | 1.01 | 1.19 | 0.661
CG42816 | DRSC11230 | 0.52 | 0.222 | 0.476
CG31798 | DRSC01702 | 0.539 | 0.0895 | -0.651
CG31798 | DRSC27963 | 0.341 | 0.204 | 2.09
Prosap | DRSC06382 | -0.762 | 0.972 | -0.995
Prosap | DRSC07081 | 0.55 | -0.153 | -0.251
cnk | DRSC07595 | 0.863 | 0.714 | 0.367
BNIP3 | DRSC11761 | 0.111 | 1.17 | -0.769
CG31104 | DRSC14658 | -0.646 | -0.0045 | -0.25
CG31104 | DRSC24390 | -0.443 | -0.443 | -0.164
Vps50 | DRSC06910 | -0.654 | -0.435 | -0.199
not | DRSC11378 | -1.98 | 0.801 | 0.463
nanos | DRSC17018 | -0.806 | 0.382 | 0.409
nanos | DRSC25268 | -0.434 | -0.393 | 0.94
sqh | DRSC18837 | -1.12 | 0.146 | -9.26
sqh | DRSC23800 | 0.541 | -0.106 | 1.41
CG12347 | DRSC14502 | 1.02 | 0.599 | 1.2
CG42762 | DRSC41356 | -1.09 | 0.353 | 0.295
CG34263 | DRSC38858 | 1.11 | 0.716 | 0.279
Fst | DRSC16491 | -0.848 | 0.256 | -3.11
Fst | DRSC24483 | 0.796 | 0.872 | 0.501
ebi | DRSC00816 | 0.159 | 0.173 | 0.699
GNBP3 | DRSC11170 | 0.388 | 0.231 | -1.75
mRpL36 | DRSC10337 | -0.722 | -2.35 | 2.07
CG5727 | DRSC02882 | -0.911 | -0.349 | -0.0717
CG5727 | DRSC29537 | -0.192 | 0.304 | 0.0435
Etl1 | DRSC02911 | -1.73 | -1.3 | -0.499
CG9550 | DRSC03262 | -0.902 | 0.6 | -0.0201
CG9550 | DRSC26557 | -0.478 | -0.389 | 1.3
CG34274 | DRSC38657 | 0.753 | 0.736 | -0.282
para | DRSC20360 | 0.502 | 0.273 | 0.964
para | DRSC40707 | 0.0888 | -1.28 | -2.49
CG18190 | DRSC06714 | 0.563 | 0.0832 | 0.316
CG18190 | DRSC27920 | 0.341 | 0.136 | -0.474
CG34258 | DRSC38685 | -0.464 | -0.176 | -0.607
CG12934 | DRSC06247 | -0.864 | 0.0233 | -1.67
CG12934 | DRSC23570 | -0.168 | 0.462 | 1.91
CG12945 | DRSC14573 | 0.344 | -7.43 | 0.363
CG31157 | DRSC21832 | -0.285 | 0.461 | -0.68
CG31157 | DRSC29159 | 1.35 | 0.385 | -1.63
Cow | DRSC13601 | -1.62 | -1.31 | -1.1
Cow | DRSC14680 | 0.78 | -1.57 | 1.01
Cow | DRSC29766 | 0.326 | 0.174 | -0.231
CG17163 | DRSC20901 | 0.508 | -0.472 | 0.564
CG4363 | DRSC04465 | -0.661 | 0.483 | -0.49
Vamp7 | DRSC06599 | 0.0556 | -0.274 | -0.0898
